Measurements as given in paper PMC3578765 (PLoS Neglected Tropical Diseases, 2013).

Legend:
Details in all cases: SI = CC50/EC50
[1] = test system: DENV1 (Den1 BR/90) infection in Huh-7.5; experiment: image-based dengue HT/HCA, 10-pt dose-response hit confirmation, DENV1; assay type: cell-based
Experimental: (§1) An immunofluorescence assay (IFA) used to detect dengue infection was optimized for the dengue HT/HCA. Briefly, cells were fixed with 4% (w/v) paraformaldehyde (PFA) for 20 min at room temperature (Rm T). PFA-fixed cells were treated with 0.25% (v/v) Triton-X for 20 min at Rm T. DENV-infected cells were detected by probing with 4G2 mAb prepared in blocking buffer: DPBS containing 5% FBS for 30 min at 37°C, followed by AlexaFluor-conjugated goat anti-mouse IgG (H+L) (Invitrogen Molecular Probes, USA) prepared in blocking buffer for 30 min at 37°C. Cell nuclei counterstained with 5 µg/mL 4′,6-diamidino-2-phenylindole (DAPI, Sigma-Aldrich, USA). Two washing cycles of DPBS was done after each step of the IFA. After the final washing, digital images were acquired using a high-throughput confocal fluorescence imaging system (Evotec Technologies High-Throughput Cell Analyzer Opera, Perkin Elmer, USA). The digital images were taken from 3 different fields of each well at 20× magnification.
(§2) Acquired images were analyzed using our in-house developed image-mining platform (IM). This platform is designed to do high-content screening and directly access the database of images that were sequentially analyzed with specially designed algorithms developed as a customized plug-in to the IM platform. The results of all the analyses were stored in a centralized database. […] One channel (DAPI-channel) captures the signal emitted by DAPI-stained nuclei at 450 nm, while the other channel (A488-channel) captures the signal emitted by the AlexaFluor 488 dye bound to the dengue E protein-antibody complexes confined in the cytoplasm of dengue-infected cells at 540 nm. To define the percentage of dengue-infected cells and, conversely the non-infected cells, a modified watershed method was applied. Compared to the original watershed algorithm that uses the morphological gradient image, a weighted gradient image is used for the topographic surface, whose weights are defined as the ridge values computed from the eigen values of the original image. The percentage of non-infected cells, which is also defined as the percent inhibition or percent activity, is derived by using the formula: [1−(A488-positive cells/total cells)]×100%.
(§3) The BioFocus kinase inhibitor library were screened against DENV1, DEN2, DENV3 and DENV4 at 10 µM in 0.5% (v/v) DMSO. MOCK-infected Huh-7.5 and IFN-α2A (500 U/mL) were used as positive controls, and the 0.5% DMSO vehicle was used as negative control. Four sets of 15 384-well plates (13 plates designated for test compounds and 2 plates designated for DMSO vehicle control) were used for the primary screening of the BioFocus kinase inhibitor library against each dengue serotype. Each of the 4,000 compounds in the library was tested in single wells. For data normalization and quality control of the screening, each test compound plate contained 16 replicates of the positive and negative controls. After dispensing the test compounds IFN-α2A and DMSO vehicle in the 384-well plates, Huh-7.5 was mixed with DENV1, DENV2, DENV3, or DENV4 to achieve a M.O.I. of 0.5 and dispensed at 5×10^3 cells/well using the Thermo Scientific WellMate automated liquid dispenser. For the MOCK-infected Huh-7.5, the cells were mixed with VM and dispensed under the same conditions as previously stated. Virus infection in the presence of the compounds proceeded at 37°C, 5% CO2 for 96 hrs. Compound activity based on percent inhibition and cell toxicity was assessed by IFA and IM analysis as described above. Scatter-plot distribution of the entire screening was generated using TIBCO Spotfire 4.5.0 (TIBCO Software Inc., Somerville, MA).
(§4) The calculated activity was normalized to a percent inhibition (PI) based on the MOCK-infected cells (100% activity, or zero infection) and dengue-infected cells (0% activity, or maximum measured infection percentage) controls according to the formula: [drawing 1] where: PImeasured - percent inhibition of test compound […]

[2] = test system: DENV3 (BR DEN3 290-02) infection in Huh-7.5; experiment: image-based dengue HT/HCA, 10-pt dose-response hit confirmation, DENV3; assay type: cell-based, Dengue virus
Experimental: as §1, §2, §3, §4

[3] = test system: DENV4 (DEN4 TVP-360) infection in Huh-7.5; experiment: image-based dengue HT/HCA, 10-pt dose-response hit confirmation, DENV4; assay type: cell-based, Dengue virus
Experimental: as §1, §2, §3, §4

[4] = test system: DENV2 (BR DEN2 01-01) infection in Huh-7.5; experiment: image-based dengue HT/HCA, 10-pt dose-response hit confirmation, DENV2; assay type: cell-based, Dengue virus
Experimental: as §1, §2, §3, §4

SMILES	SI DENV1 [1]	SI DENV3 [2]	SI DENV4 [3]	SI DENV2 [4]
NC(Cc1ccc(Cl)cc1)c1csc(Nc2ccc(S(N)(=O)=O)cc2)n1 (stereo not shown) [CND0968]	< 1.2	4.7	26	4.6
CCCc1cnc(Nc2nc(C(N)Cc3ccccc3)cs2)nc1 (stereo not shown) [CND0975]	44	< 1.0	< 1.0	8
COc1ccc(CC(N)c2csc(Nc3nccc(NCc4ccco4)n3)n2)cc1 (stereo not shown) [CND1020]	6.4	7.3	–	1.9
NC(Cc1ccccc1)c1csc(Nc2ccccn2)n1 (stereo not shown) [CND1043]	10	7.5	6.2	14
COc1cccc(Nc2nc(C(N)CC(C)C)cs2)n1 (stereo not shown) [CND1057]	7.0	7.9	2.3	23
NC(Cc1ccc(C(F)(F)F)cc1)c1csc(Nc2ncccn2)n1 (stereo not shown) [CND1081]	> 66	> 32	8.3	> 48
NC(Cc1ccc(C(F)(F)F)cc1)c1csc(Nc2nccc(NCCCO)n2)n1 (stereo not shown) [CND1172]	2.1	3.1	2.0	1.4
COc1ccc(CC(N)c2csc(Nc3ncccn3)n2)cc1 (stereo not shown) [CND1201]	> 111	> 38	> 20	> 13
NC(c1csc(Nc2ncccn2)n1)c1ccccc1Cl (stereo not shown) [CND1203]	> 59	> 43	> 20	> 24
Nc1ccc(CC(N)c2csc(Nc3ncccn3)n2)cc1 (stereo not shown) [CND1243]	> 24	> 100	> 14	> 16
CS(=O)(=O)c1cnc(Nc2nc(C(N)Cc3ccc(Cl)cc3)cs2)nc1 (stereo not shown) [CND1244]	12	13	4.8	7.2
